Anti-infective test results gathered from many reports (values: NIAID ChemDB through PubChem).

All rows: whole-cell or culture tests; species: HIV-1; method: GFP; endpoint: EC50

ECn is the concentration giving n% inhibition of infection, replication or growth. Conditions beyond the fields shown may differ between rows. An empty or dashed field is not shown.

structure	strain or isolate	mutations	setting	cell line	result
Cc1ccc(N(C)C(=O)[C@H](Cc2ccccc2)NC(=O)CNC(=O)c2ccccc2)cc1	NL4-3			TZM-gfp	1.6 µM
NS(=O)(=O)c1ccc(Cc2ccc3c(c2)NC(=O)N[C@]3(C#CC2CC2)C(F)(F)F)cc1			pseudotyped	PBMC	0.193 µM
COCC[C@@]1(C)C(=O)c2c(O)c(=O)c(C(=O)NCc3ccc(F)cc3F)cn2C[C@@H]1OC	NL4-3		100% human serum	MT-4	0.11 µM
CCN(C(=O)[C@H](Cc1ccccc1)NC(=O)CNC(=O)c1ccccc1)c1ccccc1	NL4-3			TZM-gfp	2.5 µM
CC(C)CN(C[C@@H](O)[C@H](Cc1ccccc1)NC(=O)O[C@H]1CO[C@H]2OCC[C@H]21)S(=O)(=O)c1ccc(N)c(NCCc2cccnc2)c1	IIIB WT			MT-4	0.0759 µM
Nc1ncc(F)c(Cc2ccc3c(c2)NC(=O)N[C@]3(C#CC2CC2)C(F)(F)F)n1				PBMC	0.0828 µM
CC(C)CN(C[C@@H](O)[C@H](Cc1ccccc1)NC(=O)O[C@H]1CO[C@H]2OCC[C@H]21)S(=O)(=O)c1ccc(N)c(NCC2CCN(C(=O)OC(C)(C)C)CC2)c1	IIIB WT			MT-4	0.00501 µM
Cc1nnc(C(=O)NC(C)(C)c2nc(C(=O)NCc3ccc(F)cc3)c(O)c(=O)n2C)o1	NL4-3	T97A E138K G140S Q148H		CEM-GXR	>1 µM
CC(C)CNc1cc(S(=O)(=O)N(CC(C)C)C[C@@H](O)[C@H](Cc2ccccc2)NC(=O)O[C@H]2CO[C@H]3OCC[C@H]32)ccc1N	IIIB WT			MT-4	0.00562 µM
C[C@@]12CCCCC[C@]1(O)Cn1cc(C(=O)NCc3cccc(Cl)c3F)c(=O)c(O)c1C2=O	NL4-3		100% human serum	MT-4	0.365 µM
CC(C)CN(C[C@@H](O)[C@H](Cc1ccccc1)NC(=O)O[C@H]1CO[C@H]2OCC[C@H]21)S(=O)(=O)c1ccc(N)c(NCCCO)c1	IIIB WT			MT-4	0.372 µM
O=C(NCc1ccc(F)cc1F)c1cn2c(c(O)c1=O)C(=O)N1C3CC(COC1C2)C3	NL4-3		0% human serum	MT-4	0.002 µM
CN(C(=O)[C@H](Cc1ccccc1)NC(=O)c1c[nH]c(=O)[nH]c1=O)c1ccccc1	NL4-3			TZM-gfp	>20 µg/mL
C[C@]12CCCCC[C@]1(O)Cn1cc(C(=O)NCc3ccc(F)cc3F)c(=O)c(O)c1C2=O	NL4-3		0% human serum	MT-4	0.028 µM
C[C@H]1CO[C@@H]2Cn3cc(C(=O)NCc4ccc(F)cc4F)c(=O)c(O)c3C(=O)N12	NL4-3			CEM-GXR	0.0007 µM
CC(C)CN(C[C@@H](O)[C@H](Cc1ccccc1)NC(=O)O[C@H]1CO[C@H]2OCC[C@H]21)S(=O)(=O)c1ccc(N)c(NCc2ccccn2)c1	IIIB WT			MT-4	0.00891 µM

The last 2 rows once more:

C[C@H]1CO[C@@H]2Cn3cc(C(=O)NCc4ccc(F)cc4F)c(=O)c(O)c3C(=O)N12 ; strain or isolate: NL4-3 ; cell line: CEM-GXR ; result: 0.0007 µM
CC(C)CN(C[C@@H](O)[C@H](Cc1ccccc1)NC(=O)O[C@H]1CO[C@H]2OCC[C@H]21)S(=O)(=O)c1ccc(N)c(NCc2ccccn2)c1 ; strain or isolate: IIIB WT ; cell line: MT-4 ; result: 0.00891 µM